Read-outs that look alike come from different tables or passages of the source.

Assay [1] concerns the target Acetylcholine receptor on AchR-overexpressed TE671 cells. The assay can be described thus: cell-based or functional assay.
The target is the same in assay [2]. The assay can be described thus: cell-based or functional assay. The source holds these as a separate data set.

On to “bungarotoxin (from UniProt P60615 22-95)”, for which, in assay [1], the IC50 value for AchR (inhibition of AchR action, TE671 cells) was determined as 7.5 nM.

B1: Spep-2 (peptide)
peptide: WTWKGRKSLLR
modifications: not checked
Regarding B1, in assay [2], the AchR inhibitory rate (400 µM nicotine, peptide at 20 µM) came out at 10% and the IC50 value for AchR (inhibition of AchR action, TE671 cells) worked out at 750 nM.

B2: L3-27 (peptide)
peptide: RARKKRKSLLRRQV
modifications: not checked
Consider B2, for which, in assay [2], the AchR inhibitory rate (400 µM nicotine, peptide at 20 µM) was 100% and the inhibitory ability on nicotinic acetylcholine receptors, multiple of Spep-2 was 8 times.

B3: Palmitoyl-Spep-2 (peptide)
peptide: WTWKGRKSLLR
modifications: not checked
With B3, in assay [2], the AchR inhibitory effect, fold against Spep-2 is 10 times and the IC50 value for AchR (inhibition of AchR action, TE671 cells) is 75 nM.

B4: L2-110 (peptide)
peptide: RYAKHRKRQTR
modifications: not checked
In assay [2], B4 gave an AchR inhibitory rate (400 µM nicotine, peptide at 20 µM) of 100% and an inhibitory ability on nicotinic acetylcholine receptors, multiple of Spep-2 of 8 times.

B5: L3-28 (peptide)
peptide: PNGKVRKRIRRRYF
modifications: not checked
In assay [2], B5 showed an AchR inhibitory rate (400 µM nicotine, peptide at 20 µM) of 100% and an inhibitory ability on nicotinic acetylcholine receptors, multiple of Spep-2 of 16 times.

B6: L3-37 (peptide)
peptide: SNVKRKRGRCKPYR
modifications: not checked
Regarding B6, in assay [2], the AchR inhibitory rate (400 µM nicotine, peptide at 20 µM) is 100% and the inhibitory ability on nicotinic acetylcholine receptors, multiple of Spep-2 amounted to 32 times.

B7: L1-13 (peptide)
peptide: RFRRGVRR
modifications: not checked
As for B7, the AchR inhibitory rate (400 µM nicotine, peptide at 20 µM) in assay [2] worked out at 100%.

For the origin of these results see patent publication EP3904368A2.
